Record: PubChem BioAssay AID504761 (Drosophila RNAi Screening Center, 2011)
In all, the deposit lists about 22,000 reagents; below is a random part of those that have a named target and a result. Over the whole deposit, 116 (0.52%) were called active. 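Calls depend on retest data that are not deposited; infection was ranked per plate without normalising between plates; the unit of the infection score is not given.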 Entries without a mark were called inactive. Further read-outs or replicates are left out here. Not given: the amount of reagent, the time to read-out.

Aim: 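Insect host genes that dengue virus relies on to spread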 (primary screen)
System: D.Mel-2 cells from Drosophila
Reagent: long dsRNA against Drosophila genes
Conditions: infection with dengue virus type 2; dose and infection time not stated
Measured: 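Per well on two replicate plates, imaging gave the percent of cells positive for viral envelope protein, ranked by infection, and a nuclear count of cells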
Reading the numbers: infection score: higher = more virus-infected cells
Hit rule: 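Low infection ranks in the two replicates (chance level up to 0.065) followed by a retest with a 1.5-fold or larger significant decrease, p below 0.05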
Calls: active = confirmed: knock-down lowers infection; inactive = not picked or not confirmed

Gene | DRSC id | infection score, replicate 1
ADD1 | DRSC07135 | 19.7
ADD1 | DRSC26133 | 12
CG9541 | DRSC03257 | 20.1
Gr36b | DRSC21637 | 4.62
Gr36b | DRSC29818 | 14.3
osp | DRSC01409 | 2.55
osp | DRSC03585 | 12.4
CG15317 | DRSC18005 | 5.61
CG15317 | DRSC25924 | 6.89
CG32235 | DRSC23257 | 1.5
E(bx) | DRSC08172 | 5.15
E(bx) | DRSC08509 | 3.72
E(bx) | DRSC08583 | 2.4
CG14932 | DRSC02414 | 5.06
CG14932 | DRSC26333 | 2.86
CG12594 | DRSC14532 | 2.24
CG12594 | DRSC27229 | 4.83
Ccp84Ae | DRSC12590 | 3.14
Ccp84Ae | DRSC26385 | 6.78
shps | DRSC14614 | 16
Cyp305a1 | DRSC11126 | 7.43
CG9008 | DRSC01889 | 23.7
CG9008 | DRSC26675 | 0.8
CG11293 (retired record) | DRSC04098 | 8.48
CG10237 | DRSC02029 | 8.31
tea | DRSC06110 | 23.9
tea | DRSC06236 | 11.5
CG4496 | DRSC02753 | 22.2
CG42322 | DRSC15112 | 3.87
CG42322 | DRSC15113 | 7.87
CG42322 | DRSC24976 | 2.94
alpha-Est6 | DRSC12618 | 7.4
MESR4 | DRSC06901 | 10.6
CG10936 | DRSC05669 | 1.92
CG10936 | DRSC05670 | 6.62
CG10936 | DRSC06018 | 3.83
Traf6 | DRSC18725 | 4.03
CG31797 | DRSC02476 | 1.43
CG31797 | DRSC02477 | 3.16
CG44153 | DRSC02228 | 11.6
CG44153 | DRSC02229 | 1.06
CG44153 | DRSC02902 | 4.14
CG44153 | DRSC02903 | 4.49
ham | DRSC02070 | 2.26
ham | DRSC02512 | 2.82
ham | DRSC02513 | 0.95
ham | DRSC27582 | 1.72
CG43078 | DRSC10292 | 3.54
CG43078 | DRSC10608 | 10.7
CG43078 | DRSC21541 | 3.81
CG43078 | DRSC22327 | 1.48
CG43078 | DRSC27481 | 20.2
kug | DRSC10911 | 2.15
Aldh | DRSC02717 | 1.62
deltaCOP | DRSC18760 | 3.39
deltaCOP | DRSC25961 | 2.85
stg | DRSC17071 | 3.45
stg | DRSC27238 | 6.38
